Pooled drug test results. Numbers come from NIAID ChemDB, via PubChem.

Common to all: tests on isolated targets; organism: HIV-1; target: Reverse transcriptase; read-out: IC50

Neighbouring rows are from separate reports.

structure | strain | mutations | value
CN(CCCNc1ccc2nnn3c4ccccc4c(=O)c1c23)CCCNc1ccc2nnn3c4ccccc4c(=O)c1c23 | - | - | >100 µM
COc1cc(C(=O)Oc2c(-c3ccc(Cl)c(Cl)c3)oc3ccccc3c2=O)cc(OC)c1O | - | - | >100 µM
CCOCn1c([Se]c2ccccc2)cc(=O)[nH]c1=O | - | - | >100 µM
COc1cc(C(=O)Oc2c(-c3ccc(Cl)cc3)oc3ccccc3c2=O)cc(OC)c1OC(C)=O | - | - | >100 µM
O=C(O)/C=C/c1ccc(O)c(O)c1 | - | - | >1000 µM
COc1ccc2[nH]cc(CCO)c2c1 | - | - | >8000 µM
Cc1cccc(NC(=S)N[C@@H](C)c2cccc3ccccc23)n1 | - | - | >100 µM
CC(C(=O)CN1CCN(c2ccccc2Cl)CC1)N1C(=O)c2ccccc2C1=O | - | - | 43.8 µM
CCOC1(c2ccccc2)c2cc(Cl)ccc2NC(=O)N1C | - | - | 0.056 µM
CSCSc1nc(Cc2ccccc2)c(C(C)C)c(=O)[nH]1 | IIIB | - | 6.1 µM
CC(C)=CCOc1cc(NC(=S)c2ccoc2C)ccc1Cl | - | - | 0.02 µg/mL
Fc1cccc(F)c1Cn1c(-c2c(F)cccc2F)nc2c(Br)cccc21 | - | - | <10 µM
CC(=O)Oc1ccc(/C=C/C(=O)Oc2c(-c3ccc(Cl)c(Cl)c3)oc3ccccc3c2=O)cc1OC(C)=O | - | - | >100 µM
Cc1cccc2c1nc(-c1c(F)cccc1F)n2S(=O)(=O)c1ccccc1 | - | - | <10 µM
C[C@H](Cn1cnc2c(N)ncnc21)OCP(=O)(O)OP(=O)(O)OP(=O)(O)O | IIIB | - | 0.2 µM
C=C1OC(C(=O)O)C(/C(=C/C(=O)O)C(=O)OC2C3COC(=O)c4cc(O)c(O)c(O)c4-c4c(cc(O)c(O)c4O)C(=O)OC2C(O)C(OC(=O)c2cc(O)c(O)c(O)c2)O3)c2c1cc(O)c(O)c2O | - | - | 0.05 µM
Oc1c(Oc2ccc(Cl)cc2Cl)c(Cl)cc(Cl)c1Oc1ccc(Cl)cc1Cl | - | - | 91 µM
O=C(O)c1ccc2ccc(/C=C/c3cc(O)c(O)c(O)c3)nc2c1O | - | - | >100 µM
O=C(O)[C@H]1O[C@@H](Oc2cc3oc(-c4ccccc4)cc(=O)c3c(O)c2O)[C@H](O)[C@@H](O)[C@@H]1O | - | - | 2 µg/mL
CC/C=C\C/C=C\C/C=C\C/C=C\C/C=C\CCCC(=O)OC(CO[C@H]1O[C@H](CS(=O)(=O)O)[C@@H](O)[C@H](O)[C@H]1O)OC(=O)CCCCCCCCCCCCCCC | - | - | ~10 µM
O=C(Oc1c(-c2ccc(Cl)c(Cl)c2)oc2ccccc2c1=O)c1cc(O)c(O)c(O)c1 | - | - | >100 µM
Cc1cn([C@H]2CC[C@@H](COP(=O)(O)OP(=O)(O)OP(=O)(O)O)O2)c(=O)[nH]c1=O | IIIB | - | 0.025 µM
O=C(O[C@@H]1Cc2c(O)cc(O)cc2O[C@@H]1c1ccc(O)c(O)c1)c1cc(O)c(O)c(O)c1 | LAV | - | 0.02 µg/mL
Cc1cccc(NC(=S)NC[C@H](C)c2ccccc2)n1 | - | - | 16.71 µM
Cc1cn([C@H]2C[C@H](F)[C@@H](COP(=O)(O)OP(=O)(O)OP(=O)(O)O)O2)c(=O)[nH]c1=O | - | - | 0.035 µM
C[C@@H](CNC(=S)Nc1ccc(Cl)cn1)C1CCCCC1 | - | - | 1.4 µM
CCOCn1c([Se]c2ccccc2)c(F)c(=O)[nH]c1=O | - | - | >100 µM
O=C(O)c1ccc(-c2cccc(/C=N/NC(=O)c3cc(O)c(O)c(O)c3)c2)cc1 | - | - | 0.3 µM
NS(=O)(=O)c1ccc(NC(=O)CSc2nnnn2-c2cc(Cl)ccc2Cl)c(Cl)c1 | - | RT-K103N | 0.003 µM
Cc1cccc2c1nc(-c1ccc(C#N)cc1)n2Cc1c(F)cccc1F | - | - | >10 µM
O=C(/C=C/c1ccc(O)c(O)c1)Oc1c(-c2ccc(Cl)c(Cl)c2)oc2ccccc2c1=O | - | - | 50 µM
O=C(O)[C@H]1O[C@@H](Oc2cc3oc(-c4ccccc4)cc(=O)c3c(O)c2O)[C@H](O)[C@@H](O)[C@@H]1O | LAV | - | 22 µM
Cc1ncc(COP(=O)(O)O)c(C=O)c1O | - | - | 192 µM
O=c1[nH]c(=O)n([C@H]2C[C@H](F)[C@@H](COP(=O)(O)OP(=O)(O)OP(=O)(O)O)O2)cc1Br | - | - | 0.08 µM
C[C@]12CC[C@H](OS(=O)(=O)O)CC1=CC[C@@H]1[C@@H]2CC[C@]2(C)C(=O)CC[C@@H]12 | LAV | - | >100 µM
Cc1cccc2c1nc(-c1c(F)cccc1F)n2Cc1c(F)c(F)c(F)c(F)c1F | - | - | <10 µM
COC(=O)C(=O)OC1(C(=O)O)C[C@@H](OC(=O)/C=C/c2ccc(O)c(O)c2)C(O)[C@H](OC(=O)/C=C/c2ccc(O)c(O)c2)C1 | LAI | - | 7 µM
O=c1c(O)c(-c2ccc(Cl)cc2)oc2ccccc12 | - | - | >100 µM
Cc1cccc2c1nc(C(C)C)n2Cc1c(F)cccc1F | - | - | >10 µM
O=P(O)(O)OP(=O)(O)O | - | - | >400 µM
COc1cc(/C=C/C(=O)NCCc2ccc(O)cc2)ccc1O | - | - | 9.6 µg/mL
c1ccc(C2SCc3nc4ccccc4n32)cc1 | - | RT-H221Y | >50 µM
CC(C)CCC[C@@H](C)[C@H]1CC[C@H]2[C@@H]3CC[C@H]4C[C@@H](CCC=C(c5cc(Cl)c(O)c(C(=O)O)c5)c5cc(Cl)c(O)c(C(=O)O)c5)CC[C@]4(C)[C@H]3CC[C@]12C | - | - | 0.36 µM
O=C(Oc1c(-c2ccc(Cl)cc2)oc2ccccc2c1=O)c1cc(OCc2ccccc2)c(OCc2ccccc2)c(OCc2ccccc2)c1 | - | - | 100 µM
C[C@@H]1O[C@@H](Oc2c(-c3cc(O)c(O)c(O)c3)oc3cc(O)cc(O)c3c2=O)[C@H](O)[C@H](O)[C@H]1O | - | - | >500 µM
O=C(CSc1nnnn1-c1ccc(Cl)c(Cl)c1)Nc1ccccc1[N+](=O)[O-] | - | RT-K103N | 0.46 µM
COc1cc(/C=C/C(=O)Oc2c(-c3ccc(Cl)c(Cl)c3)oc3ccccc3c2=O)ccc1O | - | - | >100 µM
Cc1ccc(Cl)cc1-n1nnnc1SCC(=O)Nc1ccccc1[N+](=O)[O-] | - | RT-K103N | 0.023 µM
CC(C)=CCOc1cc(NC(=S)c2ccoc2C)ccc1Cl | - | RT-Y181I | 9.5 µM

6 of the rows above, restated:

structure	strain	mutations	value
Oc1c(Oc2ccc(Cl)cc2Cl)c(Cl)cc(Cl)c1Oc1ccc(Cl)cc1Cl	-	-	91 µM
Cc1cccc2c1nc(-c1c(F)cccc1F)n2S(=O)(=O)c1ccccc1	-	-	<10 µM
O=C(CSc1nnnn1-c1ccc(Cl)c(Cl)c1)Nc1ccccc1[N+](=O)[O-]	-	RT-K103N	0.46 µM
CC(C(=O)CN1CCN(c2ccccc2Cl)CC1)N1C(=O)c2ccccc2C1=O	-	-	43.8 µM
CC(C)=CCOc1cc(NC(=S)c2ccoc2C)ccc1Cl	-	-	0.02 µg/mL
O=C(O[C@@H]1Cc2c(O)cc(O)cc2O[C@@H]1c1ccc(O)c(O)c1)c1cc(O)c(O)c(O)c1	LAV	-	0.02 µg/mL

ICn: concentration for n% inhibition. An empty or dashed field is not shown.